Data as given in PubChem BioAssay AID504761 (Drosophila RNAi Screening Center, 2011).

Assay: 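Insect host genes that dengue virus relies on to spread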 (primary screen)
System: D.Mel-2 cells from Drosophila
Reagents: long dsRNA against Drosophila genes
Challenge: infection with dengue virus type 2; dose and infection time not stated
Measured: 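Per well on two replicate plates, imaging gave the percent of cells positive for viral envelope protein, ranked by infection, and a nuclear count of cells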
Scale: infection score: higher = more virus-infected cells
Hit rule: 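Very low infection ranking in both replicate wells (chance probability at most 0.065), then a retest showing infection dropped 1.5-fold or more at p below 0.05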
Calls: active = confirmed: knock-down lowers infection; inactive = not picked or not confirmed
The screen tested about 22,000 reagents; below is an unselected part of those with a known target gene and a result. In the full data, 116 (0.52%) were called active. 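Calls depend on retest data that are not deposited; infection was ranked per plate without normalising between plates; the unit of the infection score is not given.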 Names joined by + are all predicted targets of the reagent. Further read-outs or replicates are left out here. The record does not give: the amount of reagent, the time to read-out.

| gene knocked down | amplicon | infection score, replicate 1 | infection score, replicate 2 | outcome |
| --- | --- | --- | --- | --- |
| Kdm2 (Lysine demethylase 2) | DRSC14286 | 7.6 | 11.1 | inactive |
| Gem3 (Gemin 3) | DRSC11144 | 2.84 | 2.99 | inactive |
| Tab2 (TAK1-associated binding protein 2) | DRSC07481 | 1.02 | 0.75 | inactive |
| Wdr37 (WD repeat domain 37) | DRSC14500 | 5.74 | 4.58 | inactive |
| sncRNA:430e + His2A:CG33859 + His2A:CG33817 + 37 more | DRSC21264 | 2.17 | 5.49 | inactive |
| CG4080 | DRSC10398 | 4.95 | 4.1 | inactive |
| ATPsynG (ATP synthase, subunit G) | DRSC02928 | 2.27 | 1.73 | inactive |
| Hr96 (Hormone receptor-like in 96) | DRSC16707 | 5.86 | 5.51 | inactive |
| Nubp2 (NUBP iron-sulfur cluster assembly factor 2) | DRSC11758 | 4.31 | 1.06 | inactive |
| fs(1)Ya (female sterile (1) Young arrest) | DRSC23058 | 0.53 | 2.15 | inactive |
| CG9040 | DRSC11053 | 2.17 | 4.49 | inactive |
| CG9760 | DRSC11101 | 1.59 | 3.83 | inactive |
| CG9760 | DRSC28846 | – | 0.47 | inactive |
| SiaT (Sialyltransferase) | DRSC04494 | 3.39 | 7.62 | inactive |
| Rbcn-3A (Rabconnectin-3A) | DRSC18314 | 2.78 | 8.27 | inactive |
| Rbcn-3A (Rabconnectin-3A) | DRSC28199 | – | 14.1 | inactive |
| pan (pangolin) | DRSC17176 | 2.67 | 3.17 | inactive |
| pan (pangolin) | DRSC22582 | 16.7 | 4.89 | inactive |
| pan (pangolin) | DRSC29251 | 8.82 | 6.92 | inactive |

Looked up above:
sncRNA:430e + His2A:CG33859 + His2A:CG33817 + 37 more [DRSC21264], infection score, replicate 1 = 2.17
fs(1)Ya (female sterile (1) Young arrest) [DRSC23058], outcome = inactive
CG9040 [DRSC11053], infection score, replicate 1 → 2.17
Value of Gem3 (Gemin 3) [DRSC11144] under “outcome”: inactive
For “infection score, replicate 2”, pan (pangolin) [DRSC22582] reads 4.89
Under “infection score, replicate 2”, CG9760 [DRSC28846] has 0.47

The list goes on.
| gene knocked down | amplicon | infection score, replicate 1 | infection score, replicate 2 | outcome |
| --- | --- | --- | --- | --- |
| CG7492 | DRSC10855 | 4.9 | 5.16 | inactive |
| CG4270 | DRSC00648 | 5.58 | 1.47 | inactive |
| Qsox4 (Quiescin sulfhydryl oxidase 4) | DRSC14224 | 9.54 | 12.9 | inactive |
| CG32318 + Klp61F + Psf1 | DRSC23255 | 1.28 | 3.24 | inactive |
| wda (will decrease acetylation) | DRSC15579 | 11.3 | 5.83 | inactive |
| wda (will decrease acetylation) | DRSC22351 | 1.35 | 6.26 | inactive |
| CG31462 (retired record) | DRSC14359 | 4.83 | 3.2 | inactive |
| CG17140 + CG17139 | DRSC02585 | 8.39 | 2.09 | inactive |
| CG17140 + CG17139 | DRSC02586 | 3.5 | 3.91 | inactive |
| Arp2 (Actin-related protein 2) | DRSC19332 | 10.9 | 7.35 | inactive |
| CG7798 | DRSC07047 | 13.7 | 6.98 | inactive |
| CG18744 | DRSC15381 | 12.8 | 12.6 | inactive |
| CG9018 | DRSC08618 | 3.86 | 0.54 | inactive |
| Alg3 (ALG3, alpha-1,3- mannosyltransferase) | DRSC04700 | 23 | 24.8 | inactive |
| CG42353 + CG42354 | DRSC23154 | 2.31 | 7.19 | inactive |
| CG42353 + CG42354 | DRSC29165 | 11.5 | 16.9 | inactive |
| Myo10A (Myosin 10A) | DRSC19834 | 0.88 | 5.13 | inactive |
| Myo10A (Myosin 10A) | DRSC19837 | 5.9 | 6.58 | inactive |
| CG8891 | DRSC03120 | 13.8 | 4.19 | inactive |
| CG8891 | DRSC28308 | 7.03 | 4.54 | inactive |
| e(y)2b (enhancer of yellow 2b) | DRSC12556 | 12.5 | 6.4 | inactive |
| IFT43 (Intraflagellar transport 43) | DRSC02892 | 22.6 | 10.7 | inactive |
| CG15715 | DRSC10216 | 0.56 | 0.81 | inactive |
| CG15715 | DRSC25332 | 10.8 | 11.9 | inactive |
| dlt (discs lost) | DRSC08705 | 2.78 | 1.54 | inactive |
| dlt (discs lost) | DRSC26168 | 4.89 | 4.72 | inactive |
| CG14483 | DRSC06455 | 27.3 | 26.9 | inactive |
| CG11360 | DRSC17134 | 7.24 | 1.31 | inactive |
| CG15553 | DRSC15091 | 1.88 | 4.08 | inactive |
| hgo (homogentisate 1,2-dioxygenase) | DRSC03544 | 15.9 | 12.9 | inactive |
| Task7 (TWIK-related acid-sensitive K[+] channel 7) | DRSC16477 | 3.75 | 1.64 | inactive |
| Task7 (TWIK-related acid-sensitive K[+] channel 7) | DRSC26662 | 6.26 | 10.5 | inactive |
| CG30109 | DRSC05675 | 8.78 | 9.91 | inactive |
| Mekk1 | DRSC16302 | 4.15 | 1.93 | inactive |
| Mekk1 | DRSC16303 | 9.78 | 3.08 | inactive |
| Idgf5 (Imaginal disc growth factor 5) | DRSC06919 | 10.9 | 12.1 | inactive |
| Idgf5 (Imaginal disc growth factor 5) | DRSC26392 | 5.01 | 4.09 | inactive |
| CG2694 | DRSC18470 | 32.8 | 7.05 | inactive |
| Meltrin | DRSC16274 | 4.11 | 3.46 | inactive |
| Meltrin | DRSC21693 | 0.5 | 1.51 | inactive |
